Assay results published in patent publication US20040121316A1 (priority 2002, published 2004).
Like-named read-outs stand apart in the source and are kept apart here.

Tests used:
HIV-1 84V90M = assay: Cell-based assay (MT-4) EC50, 84V90M; conditions: read-out: Cell-based assay (MT-4) EC50/nM 84V90M, MT-4, 84V90M
[1] = target: recombinant HIV-1 protease (Human immunodeficiency virus type 1 group M subtype B, UniProt P04585); assay: HIV-1 Protease Enzyme Assay (Ki); type: biochemical
[2] = system: wild-type HIV-1 strain IIIB; assay: Anti-HIV-1 Cell Culture Assay (EC50); type: cell-based; parameters: EC50 (nM): scale not given here
[3] = system: mutant HIV-1 I50V #1 (M46I/I47V/I50V); assay: Resistance Evaluation, I50V #1 fold change; type: cell-based
mutant HIV-1 I84V/L90M = assay: Resistance Evaluation, I84V/L90M fold change; type: cell-based
HIV-1 48V54V82A = assay: Cell-based assay (MT-4) EC50, 48V54V82A; conditions: read-out: Cell-based assay (MT-4) EC50/nM 48V54V82A, MT-4, 48V54V82A
HIV-1 30N82I88D = conditions: read-out: Cell-based assay (MT-4) EC50/nM 30N82I88D, MT-4, 30N82I88D
84V90M HIV protease = 84V90M HIV protease (Human immunodeficiency virus type 1 group M subtype B, UniProt P04585, I572V/L578M); assay: Enzymatic assay, 84V90M IC50 (Table 11); type: biochemical, HIV-1
WT HIV protease = WT HIV protease (Human immunodeficiency virus type 1 group M subtype B, UniProt P04585); assay: Enzymatic assay, WT IC50 (Table 11, CCLPPI activity); type: biochemical, HIV-1
HIV-1 46I50V = assay: Cell-based assay (MT-4) EC50, 46I50V; conditions: read-out: Cell-based assay (MT-4) EC50/nM 46I50V, MT-4, 46I50V
HIV-1 48V54V82S = assay: Cell-based assay (MT-4) EC50, 48V54V82S; conditions: read-out: Cell-based assay (MT-4) EC50/nM 48V54V82S, MT-4, 48V54V82S
HIV-1 48V82A90M = assay: Cell-based assay (MT-4) EC50, 48V82A90M; conditions: read-out: Cell-based assay (MT-4) EC50/nM 48V82A90M, MT-4, 48V82A90M
WT HIV-1 = assay: Cell-based assay (MT-4) EC50, WT; conditions: read-out: Cell-based assay (MT-4) EC50/nM WT, MT-4, WT

Nc1n[nH]c2ccc(CN3C(=O)N(Cc4cccc(C(=O)NCCCP(=O)(O)O)c4)[C@H](Cc4ccccc4)[C@H](O)[C@@H](O)[C@H]3Cc3ccccc3)cc12
EC50 (HIV-1 84V90M): > 6000 nM

CC(C)CN(C[C@@H](O)[C@H](Cc1ccc(OCP(=O)(O)O[C@@H](C)C(=O)O)cc1)NC(=O)O[C@H]1CO[C@H]2OCC[C@H]21)S(=O)(=O)c1cccnc1
Ki (pM) [1]: + +

CCOP(=O)(COCC(C)(C)CN(C[C@@H](O)[C@H](Cc1ccccc1)NC(=O)O[C@H]1CO[C@H]2OCC[C@H]21)S(=O)(=O)c1ccc(OC)cc1)OCC
EC50 (nM) [2]: + + + | Ki (pM) [1]: + + +

CCCCOC(=O)[C@H](C)NP(=O)(COc1ccc(S(=O)(=O)N(CC(C)C)C[C@@H](O)[C@H](Cc2ccccc2)NC(=O)O[C@H]2CO[C@H]3OCC[C@H]32)cc1)N[C@@H](C)C(=O)OCCCC
I50V (#1) fold change ([3]; mutant I50V (#1) vs wild type): + (>3 to ≦10) | I84V/L90M fold change (mutant HIV-1 I84V/L90M; mutant I84V/L90M vs wild type): + (>3 to ≦10) | EC50 (nM) [2]: + + | Ki [1]: 0.1 to 1 nM

COc1ccc(S(=O)(=O)N(C[C@@H](O)[C@H](Cc2ccccc2)NC(=O)O[C@H]2CO[C@H]3OCC[C@H]32)CC(C)(C)CCOCP(=O)(OCc2ccccc2)OCc2ccccc2)cc1
EC50 (nM) [2]: + + + | Ki (pM) [1]: + +

COc1ccc(S(=O)(=O)N(CC(C)C)C[C@@H](O)[C@H](Cc2cc[n+]([O-])cc2)NC(=O)O[C@H]2CO[C@H]3OCC[C@H]32)cc1
EC50 [2]: > 5000 nM | Ki (pM) [1]: + +

CCOP(=O)(Cc1ccc(C[C@H](NC(=O)O[C@H]2CO[C@H]3OCC[C@H]32)[C@H](O)CN(CC(C)C)S(=O)(=O)c2ccc(OC)cc2)cc1)OCC
I50V (#1) fold change ([3]; EC50 of mutant M46I/I47V/I50V relative to wild type, class symbols): + (>3 to ≦10) | I84V/L90M fold change (mutant HIV-1 I84V/L90M; EC50 of mutant I84V/L90M relative to wild type, class symbols): + (>3 to ≦10)

CCOC(=O)[C@H](C)NP(=O)(COc1ccc(C[C@H](NC(=O)O[C@H]2CO[C@H]3OCC[C@H]32)[C@H](O)CN(CC(C)C)S(=O)(=O)c2ccc(OC)cc2)cc1)N[C@@H](C)C(=O)OCC
EC50 ([2]; read-out: Anti-HIV-1 Cell Culture Activity EC50, MT2 cells, HIV-1 IIIB, 5 days, XTT): 105 nM

CC(C)CN(C[C@@H](O)[C@H](Cc1ccc(OCP(=O)(O)O[C@@H](C)C(=O)O)cc1)NC(=O)O[C@H]1CO[C@H]2OCC[C@H]21)S(=O)(=O)c1ccc[n+]([O-])c1
Ki [1]: 0.1 to 1 nM

CCOP(=O)(COc1ccc(C[C@@H]2[C@H](O)[C@@H](O)[C@@H](Cc3ccccc3)N(Cc3ccc4[nH]ncc4c3)C(=O)N2Cc2ccc3[nH]ncc3c2)cc1)OCC
EC50 (HIV-1 48V54V82A; tested form: TFA): 28 nM | EC50 (HIV-1 30N82I88D; tested form: TFA): 68 nM | IC50 (84V90M HIV protease; read-out: 84V90M IC50/nM, tested form: TFA): 6.2 nM | EC50 (HIV-1 84V90M; tested form: TFA): 40 nM | IC50 (WT HIV protease; read-out: WT IC50/nM, tested form: TFA): 1.4 nM | EC50 (HIV-1 46I50V; tested form: TFA): 27 nM | EC50 (HIV-1 48V54V82S; tested form: TFA): 26 nM | EC50 (HIV-1 48V82A90M; tested form: TFA): 32 nM | EC50 (WT HIV-1; tested form: TFA): 57 nM | Ki ([1]; Enzymatic assay, tested form: TFA): 0.02 nM

CC(C)CN(C[C@@H](O)[C@H](Cc1ccc(OCP(=O)(OCc2ccccc2)OCc2ccccc2)cc1)NC(=O)O[C@H]1CO[C@H]2OCC[C@H]21)S(=O)(=O)c1cccnc1
EC50 (nM) [2]: + + + | Ki (pM) [1]: + +

CC(C)CN(C[C@@H](O)[C@H](Cc1ccc(OCP(=O)(O)O[C@@H](C)C(=O)O)cc1)NC(=O)O[C@H]1CO[C@H]2OCC[C@H]21)S(=O)(=O)c1ccc(F)cc1
Ki (pM) [1]: + +

CC(C)CN(C[C@@H](O)[C@H](Cc1ccc(N)cc1)NC(=O)O[C@H]1CO[C@H]2OCC[C@H]21)S(=O)(=O)c1ccc(OCP(=O)(OCc2ccccc2)OCc2ccccc2)cc1
I84V/L90M fold change (mutant HIV-1 I84V/L90M; mutant I84V/L90M vs wild type): + (>3 to ≦10) | EC50 [2]: 500 to 5000 nM | Ki [1]: 0.1 to 1 nM

CC(C)CN(C[C@@H](O)[C@H](Cc1ccc(OCP(=O)(O)O[C@@H](C)C(=O)O)cc1)NC(=O)O[C@H]1CO[C@H]2OCC[C@H]21)S(=O)(=O)c1ccc(CO)cc1
Ki (pM) [1]: + +

CC(C)CN(C[C@@H](O)[C@H](Cc1ccc(OCP(=O)(O)O)cc1)NC(=O)O[C@H]1CO[C@H]2OCC[C@H]21)S(=O)(=O)c1ccc[n+]([O-])c1
Ki (pM) [1]: + +

Cc1c(O)cccc1C(=O)N[C@@H](Cc1ccc(OCP(=O)(OCc2ccccc2)OCc2ccccc2)cc1)[C@H](O)CN(CC(C)C)S(=O)(=O)c1ccc(N)cc1
I50V (#1) fold change ([3]; mutant I50V (#1) vs wild type): + (>3 to ≦10) | I84V/L90M fold change (mutant HIV-1 I84V/L90M; mutant I84V/L90M vs wild type): − (≦3) | EC50 (nM) [2]: + + | Ki (pM) [1]: + +

CCNc1cccc(CN2C(=O)N(Cc3cccc(N)c3)C(Cc3ccc(O)cc3)C(O)C(O)C2Cc2ccc(OCP(=O)(OCC)OCC)cc2)c1 (centres unmarked)
EC50 (HIV-1 48V54V82A): 789 nM | EC50 (HIV-1 30N82I88D): 562 nM | IC50 (84V90M HIV protease; read-out: 84V90M IC50/nM): 67 nM | EC50 (HIV-1 84V90M): 1900 nM | IC50 (WT HIV protease; read-out: WT IC50/nM): 8.7 nM | EC50 (HIV-1 46I50V): 239 nM | EC50 (HIV-1 48V54V82S): 1780 nM | EC50 (HIV-1 48V82A90M): 684 nM | EC50 (WT HIV-1): 286 nM

Nc1n[nH]c2ccc(CN3C(=O)N(CCCO)[C@H](Cc4ccccc4)[C@H](O)[C@@H](O)[C@H]3Cc3ccccc3)cc12
EC50 (HIV-1 48V54V82A): 294 nM | EC50 (HIV-1 30N82I88D): 669 nM | IC50 (84V90M HIV protease; read-out: 84V90M IC50/nM): 77 nM | EC50 (HIV-1 84V90M): 2790 nM | IC50 (WT HIV protease; read-out: WT IC50/nM): 6.1 nM | EC50 (HIV-1 46I50V): 683 nM | EC50 (WT HIV-1): 356 nM | Ki ([1]; Enzymatic assay): 0.65 nM

CC(C)CN(C[C@@H](O)[C@H](Cc1ccc(OCP(=O)(O)O[C@@H](C)C(=O)O)cc1)NC(=O)O[C@H]1CO[C@H]2OCC[C@H]21)S(=O)(=O)c1ccccc1
Ki (pM) [1]: + +
